Target: CD14 on human CD14+ monocytes (UniProt P08571)
Assay: flow cytometry on cells

SARS-CoV-2 ORF8 (S84) Ig-like domain (from UniProt P0DTC8) C20A
response (donor #1, Alexa Fluor 488-coupled protein on human PBMCs, CD14+ population gate, parent: 66.9): 2.94% | response (donor #2, Alexa Fluor 488-coupled protein on human PBMCs, CD14+ population gate, parent: 55.6): 3.73% | response (donor #3, Alexa Fluor 488-coupled protein on human PBMCs, CD14+ population gate, parent: 57.0): 4.67% | response (donor #4, Alexa Fluor 488-coupled protein on human PBMCs, CD14+ population gate, parent: 57.0): 2.44% | response (donor #5, Alexa Fluor 488-coupled protein on human PBMCs, CD14+ population gate, parent: 65.8): 2.04% | response (parent: est. 61, read off a plot): 3%
